According to paper PMC6459484, “Synthetic surfactin analogues have improved anti-PEDV properties” (PLoS ONE, 2019):
Square brackets hold non-standard residues; d marks the D form. Peptide text beside a SMILES is read from it. * marks the point of attachment. X1 = CCCCCCCc1ccc(-c2ccc(C(=O)*)cc2)cc1; Palmitoyl = CCCCCCCCCCCCCCCC(=O)*

System: PEDV CV777
Test: Plaque reduction assay (anti-PEDV activity)
Type: cell-based, Porcine epidemic diarrhea virus
Conditions: ratio of hemolytic CC50 (porcine RBCs) to anti-PEDV EC50
Procedure: Cercopithecus aethiops kidney epithelial cells (Vero, ATCC, CCL-81) were cultured in high glucose DMEM (Gibco, US), supplemented with 10% fetal bovine serum (FBS, GIBCO), at 37 °C in a 5% CO2 humidified atmosphere. Cells were routinely seeded at a density of 2×10^5 /mL in plastic tissue culture flasks (25 cm^2 flasks, Corning, USA) and passaged every 3–4 days. PEDV CV777 was provided by the Jiangsu Academy of Agricultural Sciences (JAAS).
Vero cells were seeded at 2 × 10^5 cells/well in 24-well tissue culture plates and incubated 18–24 h at 37 °C until approximately 95% confluency was reached. 100 PFU of PEDV mixed with an equal volume of SLP in DMEM or DMEM alone were incubated 10 minutes at 37 °C, then added into the wells of the Vero cells and incubated 30 minutes at 4 °C. Cells were washed 3 times with DMEM then overlaid with DMEM/1% agar and incubated 72 hours at 37 °C. The cells were fixed with 4% formaldehyde, then stained with 0.1% crystal violet after the agar overlay was removed. The data are representative of 3 biological replicates and each plaque assay was performed in triplicate and values are expressed as means ± the standard deviation. Curve fitting and EC50 were calculated with GraphPad Prism 6 using the log[inhibitor] vs. response equation.
The SLPs were tested for anti-PEDV activity using a plaque reduction assay. Serial dilutions of SLPs were incubated with an equal volume of PEDV then aliquoted onto precooled cells in 12-well plates. After the virus has adsorbed to the cells at 4 °C, SLPs were washed away. The adsorbed virus particles were then counted by plaque forming assays (Fig 2A). The results were fitted to a sigmoid-curve and plotted Fig 2B. All SLPs have potent anti-PEDV effects above 50 μg/ml, but differences in their anti-PEDV effect.
Fig 2 Anti-PEDV activities of lipopeptides. (A) PEDV was incubated with series concentrations of SLPs for 10 minutes at 37 °C. After washing cells of unadsorbed virus, the remaining infectious particles was detected by plaque assay. (B) Anti-PEDV activity (% remaining PFU) plotted as a function of lipopeptide concentration. The results of three independent experiments are shown as means ± standard deviation. 100% represents plaque counts in the control (no lipopeptide) sample.

Compound | Selectivity index, SI = CC50/EC50
CCCCCCCCCCCCCCCC(=O)N[C@@H](CCC(=O)O)C(=O)N[C@@H](CC(=O)O)C(=O)N[C@H](C(=O)N[C@H](CC(C)C)C(=O)N[C@H](CC(C)C)C(N)=O)C(C)C [SLP9] (Palmitoyl-EDV[dL][dL]-NH2) | 4.1
CCCCCCCCCCCCCCCC(=O)N[C@@H](CCC(=O)O)C(=O)N[C@H](C(=O)N[C@@H](CC(C)C)C(=O)N[C@@H](CC(=O)O)C(=O)N[C@@H](CC(C)C)C(N)=O)C(C)C [SLP7] (Palmitoyl-EVLDL-NH2) | 19.7
CCCCCCCc1ccc(-c2ccc(C(=O)N[C@@H](CCC(=O)O)C(=O)N[C@H](C(=O)N[C@H](CC(C)C)C(=O)N[C@@H](CC(=O)O)C(=O)N[C@H](CC(C)C)C(N)=O)C(C)C)cc2)cc1 [SLP10] (X1-EV[dL]D[dL]-NH2) | 7.8
CCCCCCCCCCCCCCCC(=O)N[C@@H](CCC(=O)O)C(=O)N[C@H](C(=O)N[C@H](CC(C)C)C(=O)N[C@@H](CC(=O)O)C(=O)N[C@H](CC(C)C)C(N)=O)C(C)C [SLP3] (Palmitoyl-EV[dL]D[dL]-NH2) | 4.1
Surfactin [reference compound] | 4.0
